PubChem BioAssay AID504761, Drosophila RNAi Screening Center, 2011
Assay: 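Insect host genes that dengue virus relies on to spread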 (primary screen). Cells: D.Mel-2 cells from Drosophila. Knock-down reagent: long dsRNA against Drosophila genes. Treatment: infection with dengue virus type 2; dose and infection time not stated. Measurement: 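Per well on two replicate plates, imaging gave the percent of cells positive for viral envelope protein, ranked by infection, and a nuclear count of cells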. Direction: infection score: higher = more virus-infected cells; cell count: higher = more cells in the well. Rule for the call: 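Very low infection ranking in both replicate wells (chance probability at most 0.065), then a retest showing infection dropped 1.5-fold or more at p below 0.05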. Meaning of the calls: active = confirmed: knock-down lowers infection; inactive = not picked or not confirmed.
The screen tested about 22,000 reagents; below is a random part of those that have a named target and a result. In the full data, 116 (0.52%) are marked active. 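Calls depend on retest data that are not deposited; infection was ranked per plate without normalising between plates; the unit of the infection score is not given.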 Raw values vary from plate to plate and are shown uncorrected. The numbers tell different reagents against one gene apart. Names joined by + are all predicted targets of the reagent. Not stated in the record: the amount of reagent, the time to read-out.

| predicted target | reagent | infection score, replicate 1 | infection score, replicate 2 | cell count, replicate 1 | cell count, replicate 2 | Outcome |
| --- | --- | --- | --- | --- | --- | --- |
| Atg8b | 1 | 9.39 | 1 | 3057 | 6530 | inactive |
| Atg8b | 2 | 9.45 | 16.1 | 5638 | 5682 | inactive |
| CG12299 | 1 | 15.2 | 21 | 5684 | 5264 | inactive |
| CG12299 | 2 | 8.13 | 7.07 | 5858 | 5972 | inactive |
| Ude | 1 | 5.47 | 3.61 | 6219 | 6676 | inactive |
| Sgs4 | 1 | 1.91 | 1.75 | 6013 | 6125 | inactive |
| Sgs4 | 2 | 14.1 | 19.2 | 3380 | 5737 | inactive |
| SerT | 1 | 2.51 | 5.23 | 6763 | 1816 | inactive |
| SerT | 2 | 14.9 | 7.11 | 3470 | 1561 | inactive |
| Ir48b | 1 | 23.6 | 10.1 | 6129 | 6826 | inactive |
| BomBc3 | 1 | 5.07 | 0.58 | 5921 | 6674 | inactive |
| BomBc3 | 2 | – | – | 284 | 353 | inactive |
| CG3091 | 1 | 3.75 | 4.65 | 6480 | 6565 | inactive |
| CG9593 | 1 | 2.52 | 4.23 | 6713 | 6591 | inactive |
| Rabex-5 | 1 | 17.7 | 18.4 | 5012 | 2725 | inactive |
| Rabex-5 | 2 | 7.56 | 5.14 | 6215 | 6089 | inactive |
| Gr22e | 1 | 0.14 | 0.23 | 6647 | 7064 | inactive |
| CG14419 | 1 | – | 5.18 | 372 | 5872 | inactive |
| CG14419 | 2 | 4.06 | 4.18 | 6361 | 6430 | inactive |
| CG14247 | 1 | – | – | 362 | 343 | inactive |
| CG14247 | 2 | 3.4 | 3.47 | 6146 | 6057 | inactive |
| CG3690 | 1 | 3.21 | 12.9 | 6004 | 5531 | inactive |
| CG3690 | 2 | 9.38 | 8.02 | 5088 | 6099 | inactive |
| CG32533 | 1 | 3.5 | 3.56 | 6477 | 6918 | inactive |
| CG32533 | 2 | 6.45 | 7.31 | 5956 | 5761 | inactive |
| CG32533 | 3 | 26.6 | 31.8 | 5196 | 6329 | inactive |
| CG4872 | 1 | 3.11 | 1.95 | 5951 | 6502 | inactive |
| CG17855 | 1 | 0.28 | – | 712 | 540 | inactive |
| Tim8 | 1 | 1.3 | 2.29 | 6514 | 6626 | inactive |
| gas | 1 | 17.2 | 20.4 | 6226 | 6222 | inactive |
| Cyp18a1 | 1 | 3.82 | 2.09 | 3245 | 4633 | inactive |
| Cyp18a1 | 2 | 10.6 | 7.5 | 6711 | 6636 | inactive |
| CG31326 | 1 | 1.31 | 1.52 | 6616 | 6431 | inactive |
| CG31326 | 2 | 1.56 | 3.39 | 6481 | 5870 | inactive |
| CG3625 | 1 | 2.4 | 3.78 | 6051 | 6567 | inactive |
| CG17784 | 1 | 7.12 | 0.81 | 5615 | 6875 | inactive |
| CG7252 | 1 | 16.5 | 16.2 | 5625 | 5642 | inactive |
| CG7252 | 2 | 4.67 | 3.17 | 5550 | 5642 | inactive |
| CG13492 | 1 | 4.49 | 6.62 | 6569 | 6695 | inactive |
| gudu | 1 | 17.6 | 0.58 | 5775 | 693 | inactive |
| Sema1a | 1 | 4.53 | 1.88 | 6121 | 6699 | inactive |
| Fmo-2 | 1 | 10.8 | 22.4 | 6293 | 6338 | inactive |
| Jhbp15 | 1 | 3.38 | 5.36 | 6422 | 6311 | inactive |
| CG15641 | 1 | 0.71 | 1.77 | 6466 | 6612 | inactive |
| CG10311 | 1 | 2 | 4.81 | 5989 | 6254 | inactive |
| CG7872 | 1 | 7.21 | 3.48 | 6494 | 6953 | inactive |
| CG18171 | 1 | 2.04 | 5.84 | 6477 | 5823 | inactive |
| CG18171 | 2 | 10.2 | 19 | 6199 | 6071 | inactive |
| FRG1 | 1 | 14.5 | 7.25 | 6653 | 6633 | inactive |
| cav | 1 | 7.23 | 2.84 | 6291 | 6374 | inactive |
| cav | 2 | 11.4 | 2.91 | 6028 | 5912 | inactive |
| CG7166 | 1 | 15.1 | 19.5 | 6129 | 5294 | inactive |
| Prosalpha1R + Prosalpha1 | 1 | – | 12.1 | 530 | 1804 | inactive |
| Prosalpha1R + Prosalpha1 | 2 | 0.97 | 20 | 932 | 6195 | inactive |
| CG32572 | 1 | 16.9 | 4.71 | 6117 | 6902 | inactive |
| CG32572 | 2 | 13.2 | 9.89 | 6391 | 6673 | inactive |
| CG32572 | 3 | 5.16 | 12.9 | 6741 | 6083 | inactive |
| Gr59e | 1 | 0.24 | 7.78 | 409 | 1517 | inactive |
| qsm | 1 | 4.92 | 4.35 | 6447 | 6394 | inactive |
| qsm | 2 | 0.58 | 2.5 | 6018 | 6122 | inactive |
| qsm | 3 | 1.31 | 3.05 | 6274 | 6032 | inactive |
| zyd | 1 | 0.37 | 1.91 | 5950 | 5960 | inactive |
| CG8543 | 1 | 5.35 | 4.09 | 5925 | 6352 | inactive |
| CG8543 | 2 | 1.25 | 29.2 | 6220 | 3526 | inactive |
| CG8543 | 3 | – | 3.46 | – | 5917 | inactive |
| Pfdn6 | 1 | 5.04 | 8.29 | 6310 | 6173 | inactive |
| CG15255 | 1 | 7.16 | 2.7 | 6200 | 6639 | inactive |
| CG15255 | 2 | 3.61 | 5.56 | 6316 | 5940 | inactive |
| CG9452 | 1 | 1.04 | 6.84 | 6535 | 6275 | inactive |
| CG9452 | 2 | 0.83 | 24 | 7347 | 5947 | inactive |
| Cap-D3 + tomb | 1 | 1.25 | 2.85 | 6584 | 6656 | inactive |
| CG31463 | 1 | 9.77 | 9.28 | 6641 | 6798 | inactive |
| CG31463 | 2 | 2.17 | 9.13 | 6302 | 4172 | inactive |
| CG31668 | 1 | 19.2 | 12 | 5409 | 4989 | inactive |

Laid out differently: 7 of the entries above.
CG32572 #2
- infection score, replicate 1: 13.2
- infection score, replicate 2: 9.89
- cell count, replicate 1: 6391
- cell count, replicate 2: 6673
- Outcome: inactive

CG32572 #3
- infection score, replicate 1: 5.16
- infection score, replicate 2: 12.9
- cell count, replicate 1: 6741
- cell count, replicate 2: 6083
- Outcome: inactive

Gr59e
- infection score, replicate 1: 0.24
- infection score, replicate 2: 7.78
- cell count, replicate 1: 409
- cell count, replicate 2: 1517
- Outcome: inactive

qsm #1
- infection score, replicate 1: 4.92
- infection score, replicate 2: 4.35
- cell count, replicate 1: 6447
- cell count, replicate 2: 6394
- Outcome: inactive

qsm #2
- infection score, replicate 1: 0.58
- infection score, replicate 2: 2.5
- cell count, replicate 1: 6018
- cell count, replicate 2: 6122
- Outcome: inactive

qsm #3
- infection score, replicate 1: 1.31
- infection score, replicate 2: 3.05
- cell count, replicate 1: 6274
- cell count, replicate 2: 6032
- Outcome: inactive

zyd
- infection score, replicate 1: 0.37
- infection score, replicate 2: 1.91
- cell count, replicate 1: 5950
- cell count, replicate 2: 5960
- Outcome: inactive
